Compound potency records, mixed from different reports. Data source: NIAID ChemDB in PubChem.

Shared fields: whole-cell or culture tests; agent: Mycobacterium tuberculosis

ECn: concentration that inhibits the pathogen or its effect by n%. Percent inhibition refers to the dose given; in toxicity tests it is the harm to the cells. MIC bound comes from a single tested concentration. An empty or dashed field is not shown. A number after MIC or MFC names an inhibition level or a share of isolates. Two numbers with a dash give a range or band. Rows are shuffled and stem from different studies.

smiles,method,strain or isolate,cells,dose,read-out,mutations,result
CO/N=C1/C(=O)N(CCOCCOCCOCCN2C(=O)C(=O)c3cc(C)ccc32)c2ccccc21,visual reading,H37Rv,-,-,MIC,-,128 µg/mL
CC(C)(C)OC(=O)N[C@@H](Cc1ccccc1)[C@H](O)C[C@@H](N)Cc1ccccc1,resazurin,ATTC 27294,-,-,MIC,-,130.1 µM
COC(=O)c1ccccc1S(=O)(=O)NC(=O)Nc1nc(C)cc(C)n1,-,ATCC35801,-,-,MIC,-,>3.6 µg/mL
CC(C)N=c1cc2n(-c3ccc(Cl)cc3)c3ccccc3nc-2cc1Nc1ccc(Cl)cc1,turbidity / fluorescence,H37Rv-LP,-,-,MIC90,-,0.21 µM
COC(=O)C(=O)c1c(-c2ccc(Cl)c(Cl)c2)[nH]c2[nH]n(-c3ccccc3)c(=O)c2c1=O,BACTEC,H37Rv,-,-,MIC,-,≥12.5 µg/mL
Cn1c(SCc2ccc(Cl)cc2Cl)nnc1-c1ccc(N=Cc2ccc(O)cc2)cc1,-,H37Rv,-,6.25 µg/mL,inhibition,-,<50%
Nc1nc2c(c(=O)[nH]1)c1c(N)ncnc1n2[C@@H]1O[C@H](CO)[C@@H](O)[C@H]1O,BACTEC,H37Rv,-,-,MIC bound,-,>12.5 µg/mL
CCCc1cc(=O)oc2c(C(O)CC)c(OCC)c3c(c12)OC(C)(C)CC3,-,H37Ra,-,-,MIC,-,>128 µg/mL
CCOC(=O)c1cccc(N2Cc3c(c(OC)c4ccccc4c3OC)CC2=N)c1,luminescence,H37Rv,-,-,MIC,Lux,23.41 µM
CCO/N=C1/C(=O)N(CCOCCOCCOCCN2C(=O)C(=O)c3ccccc32)c2ccc(C)cc21,visual reading,H37Rv,-,-,MIC,-,256 µg/mL
O=[N+]([O-])c1cnc(Sc2cncc[n+]2[O-])s1,-,H37Rv,VERO,-,MIC,-,0.78 µg/mL
C.C=C1C[C@@]23CCC4[C@@](C)(CCC[C@@]4(C)C(=O)NNC(=O)c4ccncc4)C2CC[C@]1(O[C@@H]1O[C@H](COC(=O)O)[C@@H](OC(=O)O)[C@H](OC(=O)O)[C@H]1OC1O[C@H](COC(C)=O)[C@@H](OC(=O)O)[C@H](OC(=O)O)[C@H]1OC(=O)O)C3,-,H37Rv,-,-,MIC,-,5 µg/mL
CO[C@H]1/C=C/O[C@@]2(C)Oc3c(C)c(O)c4c(O)c(c(/C=N/N5CCN(C6CCCC6)CC5)c(O)c4c3C2=O)NC(=O)/C(C)=C\C=C\[C@H](C)[C@H](O)[C@@H](C)[C@@H](O)[C@@H](C)[C@H](OC(C)=O)[C@@H]1C,-,H37Rv,-,-,MIC,-,0.04 µg/mL
N=c1cc2c(cn1-c1ccc([N+](=O)[O-])cc1)C(=O)c1ccccc1C2=O,luminescence,H37Rv,-,-,MIC,Lux,2.79 µM
CCc1nc2ccc(C)cc2n1CCCCNc1ccccc1,turbidity / fluorescence,H37Rv-MA,-,-,MIC90,-,0.79 µM
COc1c2c(c(OC)c3ccccc13)CN(c1ccc(C)cc1)C(=N)C2,luminescence,H37Rv,-,-,MIC,Lux,21.49 µM
CO/N=C1/C(=O)N(CCOCCOCCOCCN2C(=O)C(=O)c3cc(F)ccc32)c2ccc(F)cc21,visual reading,H37Rv,-,-,MIC,-,64 µg/mL
O=[N+]([O-])c1ccc(/C=N/Nc2nc(Nc3ccccc3)nc(Nc3ccccc3)n2)o1,-,H37Rv,-,-,MIC100,-,0.0625 µg/mL
Cc1cccc(N=Nc2c(O)c3cccc([N+](=O)[O-])c3[nH]c2=O)c1C,resazurin,H37Rv,-,-,MIC,-,>6.25 µg/mL
O=C(O)c1c(Cl)nsc1Cl,BACTEC,H37Rv,-,-,MIC bound,-,>12.5 µg/mL
CC[n+]1c(C=Cc2coc3ccccc3c2=O)sc2ccccc21,-,H37Rv,-,-,MIC,-,125 µM
Fc1ccc(C=Nc2ccc(-c3nnc(SCc4ccc(Cl)cc4Cl)n3-c3ccccc3)cc2)cc1,-,H37Rv,-,-,EC50,-,>6.25 µg/mL
O=C(NCCCOCCOCCOCCNC(=O)c1ccc2c(c1)B(O)OC2)c1ccc2c(c1)B(O)OC2,visual reading / absorbance,H37Rv,-,-,MIC,-,1560 µM
NNC(=O)c1ccncc1,-,H37Rv,-,-,MIC,-,15 µM
Cn1c(SCc2ccc(Cl)cc2Cl)nnc1-c1ccc(N=Cc2ccc(F)cc2)cc1,-,H37Rv,-,6.25 µg/mL,inhibition,-,<50%
CO/N=C1/C(=O)N(CCOCCOCCOCCN2C(=O)C(=O)c3ccccc32)c2ccc(C)cc21,visual reading,H37Rv,-,-,MIC,-,128 µg/mL
O=C1CSc2nnc(COc3ccccc3[N+](=O)[O-])n2N1C(=O)c1ccncc1,-,-,-,-,MIC,-,100 µg/mL
CC(=O)c1ccc(N=Nc2c(O)c3ccc(Cl)c(Cl)c3[nH]c2=O)cc1,resazurin,H37Rv,-,-,MIC,-,<6.25 µg/mL
O=c1n([C@@H]2O[C@H](CO)[C@@H](O)[C@@H]2O)ccc2nnnn12,resazurin,H37Rv,-,6.25 µg/mL,inhibition,-,0%
O=c1c(C=Cc2sc3ccccc3[n+]2Cc2ccc([N+](=O)[O-])cc2)coc2ccccc12,-,H37Rv,-,-,MIC,-,>500 µM
CC(C)(C)OC(=O)N[C@@H](Cc1ccccc1)[C@H](O)C[C@H](Cc1ccccc1)N=Cc1ccc([N+](=O)[O-])o1,resazurin,ATTC 27294,-,-,MIC,-,6.15 µM
C=C1C[C@]23CCC4[C@@](C)(CCC[C@@]4(C)C(=O)O)C2CC[C@@]1(C)C3,-,H37Rv,-,-,MIC,-,50 µg/mL
CCN(C(=S)S)c1ccccc1,BACTEC,H37Rv,-,-,MIC,-,≥12.5 µg/mL
Nc1ccc(-c2nnc(SCc3ccccc3)n2-c2ccccc2)cc1,-,H37Rv,-,-,EC50,-,>6.25 µg/mL
CC(C)c1nc(CN(C)C(=O)N[C@H](C(=O)N[C@@H](Cc2ccccc2)C[C@H](O)[C@H](Cc2ccccc2)NC(=O)OCc2cncs2)C(C)C)cs1,resazurin,ATTC 27294,-,-,MIC,-,>138.7 µM
NNC(=O)c1ccncc1,luminescence,H37Rv,-,-,MIC,Lux,0.18 µM
Cc1ccc2c(O)c(N=Nc3ccccc3Cl)c(=O)[nH]c2c1,resazurin,H37Rv,-,6.25 µg/mL,inhibition,-,31%
CC(C)(C)OC(=O)N[C@@H](Cc1ccccc1)[C@H](O)C[C@H](Cc1ccccc1)N=Cc1ccco1,resazurin,ATTC 27294,-,-,MIC,-,108.1 µM
CCOC(OCC)N1C(=O)C2(C(OCC)OCC)CC3C(OC(=O)N3N)c3cccc1c32,resazurin,H37Rv,-,6.25 µg/mL,inhibition,-,6%
CO[C@H]1/C=C/O[C@@]2(C)Oc3c(C)c(O)c4c(O)c(c(/C=N/N5CCN(C)CC5)c(O)c4c3C2=O)NC(=O)/C(C)=C\C=C\[C@H](C)[C@H](O)[C@@H](C)[C@@H](O)[C@@H](C)[C@H](OC(C)=O)[C@@H]1C,turbidity / fluorescence,H37Rv-LP,-,-,MIC90,-,0.008 µM
Cc1csc(C(C)(O)c2nnc(Nc3ncn(Cc4c(F)cccc4F)n3)s2)n1,-,G96V,-,-,MIC,-,>25 µM
CCCc1cc(=O)oc2c(C(O)CC)c(OC(C)C)cc(OC(C)C)c12,-,H37Ra,-,-,MIC,-,>128 µg/mL
O=C1CSc2nnc(-c3ccc(Cl)cc3)n2N1C(=O)c1ccncc1,-,-,-,-,MIC,-,10 µg/mL
O=c1c(C=Cc2sc3ccccc3[n+]2Cc2ccc(F)cc2)coc2ccc(Cl)cc12,-,H37Rv,-,-,MIC,-,500 µM
NNC(=O)CN(CC(=O)NN)CC(=O)NN,BACTEC,H37Rv,-,12.5 µg/mL,inhibition,-,23%
CC(=O)c1ccc(N=Nc2c(O)c3ccccc3n(C)c2=O)cc1,resazurin,H37Rv,-,6.25 µg/mL,inhibition,-,20%
Cn1c([N+](=O)[O-])cnc1N1CCN(c2nncs2)C1=O,BACTEC,H37Rv,-,-,MIC bound,-,>12.5 µg/mL
C=CCOc1cc2c(c3oc(=O)cc(CCC)c13)[C@@H](O)[C@H](C)[C@@H](C)O2,-,H37Ra,-,-,MIC,-,>128 µg/mL
CC(=O)Nc1ccc2[nH]c(=O)c3cc(Cl)ccc3c2c1,BACTEC,H37Rv,-,-,MIC bound,-,>12.5 µg/mL
C#CCOc1c2c(c3c(CCC)cc(=O)oc3c1C(=O)CC)OC(C)(C)C=C2,-,H37Ra,-,-,MIC,-,>128 µg/mL
NC(=S)NNC(=S)S,-,TAC-R,-,-,MIC,-,12.5 µg/mL
O=c1[nH]c2ccc(Cl)cc2c(O)c1N=Nc1cccc([N+](=O)[O-])c1,resazurin,H37Rv,-,6.25 µg/mL,inhibition,-,96%
CCN(CC)CCNc1ccc(CO)c2oc3ccc(OS(=O)(=O)c4ccc(C)cc4)cc3c(=O)c12,-,KM-R,-,-,MIC,-,12.5 µg/mL
Cc1cc(O)c2c(c1)C(=O)C=C(C1=CC(=O)c3cc(C)cc(O)c3C1=O)C2=O,-,H37Rv,-,-,MIC,-,100 µg/mL
CCCCCCCCCCCC1=C(O)C(=O)C=C(O)C1=O,BACTEC,H37Rv,-,-,MIC,-,128 µg/mL
CO/N=C1/C(=O)N(CCOCCOCCOCCN2C(=O)C(=O)c3cc(F)ccc32)c2ccc(C)cc21,visual reading,H37Rv,-,-,MIC,-,128 µg/mL
O=c1c(C=Cc2sc3ccccc3[n+]2Cc2ccc(F)cc2)coc2ccccc12,-,H37Rv,-,-,MIC,-,250 µM
Cc1ccc(OCc2nnc3n2N(C(=O)c2ccncc2)C(=O)CS3)cc1,-,-,-,-,MIC,-,100 µg/mL
NNC(=O)c1ccncc1,-,M103I,-,-,MIC,-,0.06 µg/mL
C=CC[n+]1c(C=Cc2coc3ccc(Br)cc3c2=O)sc2ccccc21,-,H37Rv,-,-,MIC,-,60 µM
Cc1cc(O)c2c(c1)C(=O)C=C(c1c(C)cc(O)c3c1C(=O)C=CC3=O)C2=O,-,H37Rv,-,-,MIC,-,10 µg/mL
CCC1CN(c2c(F)cc3c(=O)c(C(=O)O)cn(C4CC4)c3c2OC)CCN1,-,Isolate TN7811,-,-,MIC,-,0.1 µg/mL
Cc1ccc2occ(C=Cc3nc4ccccc4[nH]3)c(=O)c2c1,-,H37Rv,-,-,MIC,-,250 µM
O=C(c1ccncc1)N1C(c2ccccc2)=C(c2ccccc2)Sc2nnc(-c3ccccc3)n21,-,-,-,-,MIC,-,10 µg/mL
CCCCCCCCCCCCCCCCOc1ccc(OC)cc1C(=O)NNC(=S)SC,BACTEC,H37Rv,-,-,MIC,-,≥128 µg/mL
CCCc1cc(=O)oc2c3c(cc(OC)c12)O[C@H](C)[C@H](C)[C@@H]3O,-,H37Ra,-,-,MIC,-,>128 µg/mL
COc1c2c(c(OC)c3ccccc13)CN(c1ccc(Cl)cc1)C(=N)C2,luminescence,H37Rv,-,-,MIC,Lux,10.4 µM
Cc1ccc(-n2c(SCc3ccccc3)nnc2-c2ccc(N)cc2)cc1,-,H37Rv,-,6.25 µg/mL,inhibition,-,50–59%
CCO/N=C1\C(=O)N(CCOCCOCCOCCN2C(=O)/C(=N/OC)c3cc(F)ccc32)c2ccc(F)cc21,visual reading,-,-,-,MIC,MDR,128 µg/mL
Cc1cn(C2CC(N=[N+]=[N-])C(COC(=O)C3(O)CC[C@H]4[C@@H]5CCC6=CC(=O)CC[C@]6(C)[C@H]5C(O)C[C@@]43C)O2)c(=O)[nH]c1=O,BACTEC,H37Rv,-,-,MIC bound,-,>12.5 µg/mL
CCc1nc2ccc(C)cc2n1CCCCOc1ccccc1,turbidity / fluorescence,H37Rv-MA,-,-,MIC90,-,0.78 µM
CO[C@@]12[C@H](COC(N)=O)C3=C(C(=O)C(C)=C(N)C3=O)N1C[C@H]1[C@@H]2N1C(=O)/C=C/c1ccccc1,-,EMB-R,-,-,MIC,-,0.2 µg/mL
Cc1cc2c(c(O)c1-c1c(C)cc(O)c3c1C(=O)C=CC3=O)C(=O)C=CC2=O,-,H37Rv,-,-,MIC,-,10 µg/mL
COc1ccc(N/C=C/C2=[N+](C)c3ccccc3C2(C)C)c(OC)c1,BACTEC,H37Rv,-,-,MIC bound,-,>6.25 µg/mL
O=C1CSc2nnc(COc3ccc4ccccc4c3)n2N1C(=O)c1ccncc1,-,-,-,-,MIC,-,100 µg/mL
CC1(C)OCC(C2OC3OC(C)(C)OC3C2N)O1,BACTEC,H37Rv,-,12.5 µg/mL,inhibition,-,-3%
COc1ccc(N=Nc2c(O)c3ccc(Cl)cc3[nH]c2=O)cc1,resazurin,H37Rv,-,6.25 µg/mL,inhibition,-,4%
NC(=O)N/N=C(\Cc1nc2ccccc2nc1C/C(=N\NC(N)=O)c1cccc2ccccc12)c1cccc2ccccc12,resazurin,H37Rv,-,-,MIC bound,-,>6.25 µg/mL
Cc1ccc(-n2cc3c(cc2=N)C(=O)c2ccccc2C3=O)cc1,luminescence,H37Rv,-,-,MIC,Lux,2.68 µM
O=c1sc(-c2nc3ccccc3[nH]2)c(/N=C/c2ccccc2)n1-c1ccccc1,BACTEC,H37Rv,-,12.5 µg/mL,inhibition,-,0%
OCCNc1nc(Nc2ccc(F)cc2)nc2ccccc12,-,H37Rv,-,-,MIC100,-,>32 µg/mL

Repeating the final 8 entries:

smiles,method,strain or isolate,cells,dose,read-out,mutations,result
COc1ccc(N/C=C/C2=[N+](C)c3ccccc3C2(C)C)c(OC)c1,BACTEC,H37Rv,-,-,MIC bound,-,>6.25 µg/mL
O=C1CSc2nnc(COc3ccc4ccccc4c3)n2N1C(=O)c1ccncc1,-,-,-,-,MIC,-,100 µg/mL
CC1(C)OCC(C2OC3OC(C)(C)OC3C2N)O1,BACTEC,H37Rv,-,12.5 µg/mL,inhibition,-,-3%
COc1ccc(N=Nc2c(O)c3ccc(Cl)cc3[nH]c2=O)cc1,resazurin,H37Rv,-,6.25 µg/mL,inhibition,-,4%
NC(=O)N/N=C(\Cc1nc2ccccc2nc1C/C(=N\NC(N)=O)c1cccc2ccccc12)c1cccc2ccccc12,resazurin,H37Rv,-,-,MIC bound,-,>6.25 µg/mL
Cc1ccc(-n2cc3c(cc2=N)C(=O)c2ccccc2C3=O)cc1,luminescence,H37Rv,-,-,MIC,Lux,2.68 µM
O=c1sc(-c2nc3ccccc3[nH]2)c(/N=C/c2ccccc2)n1-c1ccccc1,BACTEC,H37Rv,-,12.5 µg/mL,inhibition,-,0%
OCCNc1nc(Nc2ccc(F)cc2)nc2ccccc12,-,H37Rv,-,-,MIC100,-,>32 µg/mL